Some compounds may have been tested in ways that are not shown here.
Test system: Mammalian orthoreovirus, type 3 (strain Dearing, ATCC VR-824)
Test: Reovirus model, titration on L929 cells (Table 2)
Format: cell-based
Conditions: 0.05% inactivator
[1] = 16 hours, 2-8° C., then 3 hours at 37° C.

Compound | Reduction (of reovirus titre) [1] [log 10] | Reduction (of reovirus titre) (16 hours, 37° C.) [log 10] | Reduction (of reovirus titre) (24 hours, 19-23° C.) [log 10] | Reduction (of reovirus titre) (24 hours, 37° C.) | Reduction (of reovirus titre) (48 hours, 19-23° C.) [log 10]
CCC(OO)OO | 5.0 | 7.65 | 5.8 | ≧7.9 log 10 | 5.5
CCC(C)(OO)OO | 3.5 |  |  |  | 

Reference: patent US9426989B2 (priority 2010, dated 2016)
